In PubChem BioAssay AID485294 (National Center for Advancing Translational Sciences (NCATS), 2010):
Several values for one entry are separate records, joined by “and”; a condition that tells them apart may be missing. Identical values can stand only once. The entries are a selection whose mix differs from that of the whole data set. Inconclusive results are not listed. Activity calls are given as the source filed them. Calls come from the whole dose curve; as a rule, active = well fitted inhibition curve with a large enough effect; inconclusive = small, poorly fitted or top-dose-only effect; inactive = flat fitted curve, though single readings scatter.

By UniProt entry, the sequences of proteins in these tests, tags left out. Where a name states a change or a piece, a line headed by the entry shows the natural chain unless it says otherwise.
UniProt P00811: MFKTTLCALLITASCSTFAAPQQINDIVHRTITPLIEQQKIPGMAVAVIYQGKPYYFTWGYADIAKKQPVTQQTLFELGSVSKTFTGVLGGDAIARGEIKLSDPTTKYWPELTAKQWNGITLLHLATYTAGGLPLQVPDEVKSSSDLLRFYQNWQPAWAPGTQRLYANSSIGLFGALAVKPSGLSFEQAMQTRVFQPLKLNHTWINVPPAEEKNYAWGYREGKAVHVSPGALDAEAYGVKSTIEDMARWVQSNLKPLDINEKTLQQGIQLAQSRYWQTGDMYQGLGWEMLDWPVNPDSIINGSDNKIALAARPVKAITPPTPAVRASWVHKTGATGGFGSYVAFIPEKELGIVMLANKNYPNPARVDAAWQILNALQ

target: Beta-lactamase (Escherichia coli (strain K12)) (UniProt P00811); assay: qHTS Inhibitors of AmpC Beta-Lactamase (assay with detergent); settings: AmpC hydrolysis of nitrocefin, absorbance 480 nm, 0.01% Triton; at 114 µM (top of the series);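 note: 0% = no-compound wells and -100% = no-enzyme wells; nearly all actives have a fitted effect of over 25% in size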

| SMILES | activity change, negative = inhibition |
| --- | --- |
| CCOC(=O)Nc1ccc([As](=O)(O)O)c(O)c1 | inactive: -2.17% |
| O=[N+]([O-])c1ccc(Nc2ccc(Oc3ccc([N+](=O)[O-])cc3[N+](=O)[O-])cc2)c([N+](=O)[O-])c1 | inactive: -6.61% |
| O=P(Nc1ccccn1)(c1cccc2ccccc12)c1cccc2ccccc12 | inactive: 1.68% |
| Cc1cc(SC(NC=O)C(Cl)(Cl)Cl)ncn1 (stereo not given) | inactive: 1.46% |
| CCOC(=O)Nc1cccc([As](=O)(O)O)c1 | inactive: -5.84% |
| O=C(Nc1cc([As](=O)(O)O)ccc1O)c1ccccc1 | inactive: -7.46% |
| O=[N+]([O-])c1cccc(NC2=NCC(CBr)S2)c1 (stereo not given) | inactive: -0.554% |
| O=C(O)CNc1ccc([As](=O)(O)O)cc1 | inactive: -13.9% |
| CC(C)(C)C(=O)NC(Sc1ccncn1)C(Cl)(Cl)Cl (stereo not given) | inactive: -1.11% |
| O=[N+]([O-])c1ncn(CCn2ncnc2[N+](=O)[O-])n1 | inactive: 1.85% |
| O=[N+]([O-])c1cccc2n[nH]nc12 | inactive: 1.88% |
| CC(=O)N1C2C3N(C(C)=O)C1C1N(C(C)=O)C(C(N1C(C)=O)N3C(C)=O)N2C(C)=O | inactive: -9.42% |
| Cc1ccc(NP(=O)(Oc2ccccc2)Oc2ccccc2)nc1 | inactive: 2.72% |
| CCc1nc2c(n1)c1c(non1O)c1c2no[n+]1[O-] | inactive: -1.55% |
| COc1ccc(C2=NCC(CBr)S2)cc1 (stereo not given) | inactive: 1.99% |
| CC(C)=N/N=C(\N)N[N+](=O)[O-] | inactive: -6.25% |
| CN(C)C(=O)OCCc1n(C)cc[n+]1C | inactive: -9.08% |
| CC1CCN(C(=O)Oc2c(Cl)cc(Cl)c3cccnc23)CC1 | inactive: 5.53% |
| Nc1ccc([As](=O)(O)c2ccc(N)cc2)cc1 | inactive: -6.99% |
| C[N+]1=C2C=CC=CC=C2SC12C([N+](=O)[O-])=CC([N+](=O)[O-])=C[C-]2[N+](=O)[O-] (stereo not given) | inactive: 2.63% |
| CCN(/C(=N/P(=O)(N1CCOCC1)N1CCOCC1)N1CCOCC1)c1ccc(OC)cc1 | inactive: 8.06% |
| COc1ccccc1OP(=O)(Nc1ccc(C)cn1)Oc1ccccc1OC | inactive: 6.91% |
| Cc1ccc(OP(=O)(Nc2nccs2)Oc2ccc(C)cc2)cc1 | inactive: 2.88% |
| CN1CCCC(OC(=O)C(c2ccccc2)c2ccccc2)C1 (stereo not given) | inactive: -13.4% |

| SMILES | activity change, negative = inhibition |
| --- | --- |
| Clc1ccc(Cl)c(NC2=NCC(CBr)S2)c1 (stereo not given) | inactive: 3.14% |
| NC(=O)c1cc([N+](=O)[O-])cc([N+](=O)[O-])c1N | inactive: 2.24% |
| Nc1cc(N)c2nonc2c1[N+](=O)[O-] | inactive: 5.28% |
| CC(C)CC(=O)NC(Sc1ccc(Cl)cc1)C(Cl)(Cl)Cl (stereo not given) | inactive: 0.413% |
| Oc1ccccc1CNc1ccccn1 | inactive: 10.3% |
| Cc1c2non([O-])c-2c(C)[n+](=O)[n+]1[O-] | inactive: -13.2% |
| CCOP(=O)(Nc1ccccc1)OCC | inactive: -12.5% and inactive: 6.02% |
| Cc1ccc(NP(=O)(Oc2ccccc2F)Oc2ccccc2F)nc1 | inactive: 5.76% |
| CC(=O)Nc1ccc([As](=O)(O)O)cc1 | inactive: 4.45% |
| O=C(O)c1ccccc1[As](=O)(O)O | inactive: -12% |
| O=P(Nc1nc2ccc(Cl)cc2s1)(c1ccccc1)c1ccccc1 | inactive: -2.59% |
| CCN(N=Nc1nonc1N)c1nonc1N | inactive: -10.7% |
| Nc1cccc2ccc([As](=O)(O)O)cc12 | inactive: -7.8% |
| O=[N+]([O-])c1cc([N+](=O)[O-])c(CCN2CCOCC2)c([N+](=O)[O-])c1 | inactive: -1.9% |
| CCNC(=S)/N=C(\N)N[N+](=O)[O-] | inactive: -4.04% |
| O=C(NC1CCS(=O)(=O)C1)NP(=S)(Oc1ccccc1)Oc1ccccc1 (stereo not given) | inactive: 0.932% |
| c1ccc(-c2nn[nH]n2)c(-c2nn[nH]n2)c1 | inactive: -6.71% |
| Cc1ccc(NP(=O)(Oc2cccc(C)c2)Oc2cccc(C)c2)nc1 | inactive: 3.94% |
| Cc1ccccc1OP(=O)(Nc1ccccn1)Oc1ccccc1C | inactive: 1.27% |
| O=c1c2cc([N+](=O)[O-])ccc2[nH]c2c([N+](=O)[O-])cc([N+](=O)[O-])cc12 | inactive: 2.14% |
| CN(C)C(=O)Oc1noc2ccccc12 | inactive: -7.27% |
| COC(=O)c1cc2c(s1)N=C(c1ccccc1)N(C)P2(=O)N1CCOCC1 (stereo not given) | inactive: -3.47% |
| Cc1ccc(OP(=O)(Nc2ccccn2)Oc2ccc(C)cc2)cc1 | inactive: -0.673% |
| O=C(OC1CN2CCC1CC2)c1ccccc1 (stereo not given) | inactive: -6.8% |

| SMILES | activity change, negative = inhibition |
| --- | --- |
| CCC(=O)N1C2C3N(C(=O)CC)C1C1N(C(=O)CC)C(C(N1C(=O)CC)N3C(=O)CC)N2C(=O)CC | inactive: -6.03% |
| CC(C)(C)C(=O)NC(Sc1ccccc1)C(Cl)(Cl)Cl (stereo not given) | inactive: -4.12% |
| CCOc1ccc(C2=NCC(CBr)S2)cc1 (stereo not given) | inactive: -0.672% |
| CC(=O)Nc1ccc([As](=O)(O)O)c(O)c1 | inactive: -5.45% |
| CC(=O)Nc1ccc(Oc2c([N+](=O)[O-])cc([N+](=O)[O-])cc2[N+](=O)[O-])cc1 | inactive: -0.228% |
| CC(=O)c1ccc(N2CC2c2ccncc2)cc1 (stereo not given) | inactive: 0.467% |
| Cc1ccccc1CN(C)C(=O)COC(=O)C(O)(c1ccccc1)c1ccccc1 | inactive: -5.58% |
| C[C@H]1OP(=O)(Oc2ccccc2)C[C@@H]2O[C@@H]21 (stereo not given in full) | inactive: 3.83% |
| C[C@@H]1C=CCP(=O)(Oc2ccccc2)O1 (stereo not given in full) | inactive: 6.07% |
| c1nnnn1CCn1cnnn1 | inactive: -6.23% |
| CC(C)C(=O)NC(Sc1ccccc1)C(Cl)(Cl)Cl (stereo not given) | inactive: -11.4% |
| O=P(Nc1nccs1)(c1ccccc1)c1ccccc1 | inactive: 0.683% |
| O=P(Nc1nc2ccccc2s1)(c1ccccc1)c1ccccc1 | inactive: 2.22% |
| C[C@H]1OP(=O)(Oc2ccccc2)[C@H](O)[C@H](O)[C@H]1N=[N+]=[N-] (stereo not given in full) | inactive: 2.58% |
| O=P(Nc1ccccn1)(c1ccc(Br)cc1)c1ccc(Br)cc1 | inactive: -8.36% |
| CN(C)C1(CNC(=O)c2ccc(Cl)c(S(N)(=O)=O)c2)CCCCC1 | inactive: -0.0597% |
| C(Cc1nn[nH]n1)Cc1nn[nH]n1 | inactive: -1.81% |
| Nc1ccc([As](=O)(O)c2ccc([N+](=O)[O-])cc2)cc1 | inactive: -7.57% |
| O=C(OC1CN2CCC1CC2)c1cccc(Cl)c1 (stereo not given) | inactive: 4.21% |
| O=[N+]([O-])c1ccc(O)c(/C=N/Nc2ccc([N+](=O)[O-])cc2[N+](=O)[O-])c1 | inactive: -9.11% |
| O=[N+]([O-])c1ncn(CCn2cnc([N+](=O)[O-])n2)n1 | inactive: 6.92% |
| CC(=O)NC(SC(=S)N(C)C)C(Cl)(Cl)Cl (stereo not given) | inactive: 2.99% |
